Pooled drug test results. Numbers come from NIAID ChemDB, via PubChem.

Common to all: growth or infection tests; organism: HIV-1; read by: RT activity; measure: EC50

Lines come from different laboratories, so protocols vary.

{"compound": "O=C(OC(c1cccnc1)C(F)(F)c1nc2ccccc2o1)c1cccc(C(F)(F)F)c1", "strain": "LAI", "cell line": "CEM + CEM-SS", "result": ">100 µM"}
{"compound": "CC(C)C1=C2[C@H]3CC[C@@H]4[C@@]5(C)CC[C@H](OC(=O)CC(C)(C)C(=O)O)C(C)(C)[C@@H]5CC[C@@]4(C)[C@]3(C)CC[C@@]2(NC(=O)NCc2nncn2C)CC1=O", "strain": "IIIB", "conditions": "30% human serum", "cell line": "MT-2", "result": ">1 µM"}
{"compound": "Nc1nc(NC2CC2)c2ncn([C@H]3CO[C@@H](CO)O3)c2n1", "strain": "IIIB", "cell line": "MT-2", "result": "0.18 µM"}
{"compound": "CC(C)C1=C2C3CCC4[C@@]5(C)CC[C@H](OC(=O)CC(C)(C)C(=O)O)C(C)(C)C5CC[C@@]4(C)[C@]3(C)CC[C@@]2(NC(=O)c2ccsc2)CC1=O", "strain": "IIIB", "conditions": "30% human serum", "cell line": "MT-2", "result": "<0.199 µM"}
{"compound": "C[C@@H]1CCO[C@H]2Cn3cc(C(=O)NCc4ccc(F)cc4F)c(=O)c(O)c3C(=O)N12", "strain": "NL4-3", "mutations": "N155H", "cell line": "CBMC", "result": "0.0016 µM"}
{"compound": "FC(c1ccccc1)C(F)(F)c1nc2ccccc2o1", "strain": "LAI", "cell line": "CEM + CEM-SS", "result": ">100 µM"}
{"compound": "CC(C)C1=C2[C@H]3CC[C@@H]4[C@@]5(C)CC[C@H](OC(=O)CC(C)(C)C(=O)O)C(C)(C)[C@@H]5CC[C@@]4(C)[C@]3(C)CC[C@@]2(N)CC1=O", "strain": "IIIB", "conditions": "30% human serum", "cell line": "MT-2", "result": "<0.199 µM"}
{"compound": "COc1ccnc2[nH]cc(C(=O)C(=O)N3CCN(C(=O)c4ccccc4)C[C@H]3C)c12", "strain": "LAI(GP41-I595F) Recombinant", "mutations": "GP41-I595F", "cell line": "MT-2", "result": "0.032 µM"}
{"compound": "Cc1nc(CCCCCCC(=O)c2ccccc2)n2nc(NCCCCCCNCc3cn([C@H]4C=C[C@@H](CO)O4)c(=O)[nH]c3=O)ccc12", "strain": "IIIB", "cell line": "PBMC", "result": "0.03 µM"}
{"compound": "COc1cc(-c2ccc(N=Nc3ccc4c(S(=O)(=O)O)cc(S(=O)(=O)O)c(N)c4c3O)c(OC)c2)ccc1N=Nc1ccc2c(S(=O)(=O)O)cc(S(=O)(=O)O)c(N)c2c1O", "strain": "TP1", "cell line": "CEM + CEM-SS", "result": "0.6 µM"}
{"compound": "O=c1[nH]c(=O)n([C@H]2C=C[C@@H](CO)O2)cc1CO", "strain": "LAI", "cell line": "CEM + CEM-SS", "result": "0.1 µM"}
{"compound": "CC(C)C1=C2C3CCC4[C@@]5(C)CC[C@H](OC(=O)CC(C)(C)C(=O)O)C(C)(C)C5CC[C@@]4(C)[C@]3(C)CC[C@@]2(NC(=O)OC2CCCC2)CC1=O", "strain": "IIIB", "conditions": "30% human serum", "cell line": "MT-2", "result": "<0.199 µM"}
{"compound": "Cc1nc(CCCCCCC(=O)c2ccccc2)n2nc(NCCCCCCCCCCCCNCc3cn([C@H]4C=C[C@@H](CO)O4)c(=O)[nH]c3=O)ccc12", "strain": "LAI", "cell line": "CEM + CEM-SS", "result": "0.037 µM"}
{"compound": "CC(C)C1=C2C3CCC4[C@@]5(C)CC[C@H](OC(=O)CC(C)(C)C(=O)O)C(C)(C)C5CC[C@@]4(C)[C@]3(C)CC[C@@]2(NC(=O)NCC2CCCCC2)CC1=O", "strain": "IIIB", "conditions": "30% human serum", "cell line": "MT-2", "result": "<0.199 µM"}
{"compound": "Cc1cn([C@H]2C=C[C@@H](CO)O2)c(=O)[nH]c1=O", "strain": "IIIB", "cell line": "MT-4", "result": "0.28 µM"}
{"compound": "O=C(OC(c1ccccc1)C(F)(F)c1nc2ccccc2o1)c1ccncc1", "strain": "LAI", "cell line": "CEM + CEM-SS", "result": ">100 µM"}
{"compound": "CCCCCCCCCCCCCCCCOP(=O)(OC[C@H]1OC(O)[C@@H](O)[C@@H](O)[C@@H]1O)OC[C@H]1O[C@@H](n2cc(C)c(=O)[nH]c2=O)C[C@@H]1N=[N+]=[N-]", "strain": "LAV-Bru", "conditions": "7 d", "cell line": "CEM", "result": "<0.2 µM"}
{"compound": "O=c1[nH]cnc2c1ncn2[C@@H]1O[C@H](CO)[C@H]1CO", "strain": "RF", "cell line": "MT-4", "result": "2.7 µM"}
{"compound": "O=C(CNC(=O)COc1ccccc1)NCc1ccc(C(=O)N2CCCCC2)cc1", "strain": "92UG024", "cell line": "PBMC", "result": "16 µM"}
{"compound": "CCCc1cc(=O)oc2c3c(c4c(c12)OC(C)(C)CC4)O[C@@H](C)[C@H](C)[C@@H]3O", "strain": "ROJO(SI)", "cell line": "PBMC", "result": "0.5 µM"}
{"compound": "CCCCCCCCCCCCCCCCOP(=O)(OCCO[C@@H]1O[C@H](CO)[C@@H](O)[C@H](O)[C@@H]1O)OC[C@H]1O[C@@H](n2cc(C)c(=O)[nH]c2=O)C[C@@H]1N=[N+]=[N-]", "strain": "LAV-Bru", "conditions": "15 d", "cell line": "CEM", "result": "<0.2 µM"}
{"compound": "O=C(O)CCN(CCN(CC(=O)O)Cc1cnc2c(O)cccc2c1)CC(=O)O", "strain": "HXB2", "cell line": "MT-4", "result": "10.2 µM"}
{"compound": "CC(C)C1=C2[C@H]3CC[C@@H]4[C@@]5(C)CC[C@H](OC(=O)CC(C)(C)C(=O)O)C(C)(C)[C@@H]5CC[C@@]4(C)[C@]3(C)CC[C@@]2(NC(=O)CN2CCCC2)CC1=O", "strain": "IIIB", "conditions": "30% human serum", "cell line": "MT-2", "result": "<0.199 µM"}
{"compound": "FC(c1ccc(-c2ccccc2)cc1)C(F)(F)c1nc2ccccc2o1", "strain": "LAI", "cell line": "CEM + CEM-SS", "result": ">100 µM"}
{"compound": "Cc1cn([C@H]2C[C@H](N=[N+]=[N-])[C@@H](COP(=O)(O)OCCO[C@H]3O[C@H](CO)[C@@H](O)[C@H](O)[C@@H]3O)O2)c(=O)[nH]c1=O", "strain": "LAV-Bru", "conditions": "15 d", "cell line": "CEM", "result": "<0.2 µM"}
{"compound": "CC(C)C1=C2[C@H]3CC[C@@H]4[C@@]5(C)CC[C@H](OC(=O)CC(C)(C)C(=O)O)C(C)(C)[C@@H]5CC[C@@]4(C)[C@]3(C)CC[C@@]2(NC(=O)N2CCNCC2)CC1=O", "strain": "IIIB", "conditions": "30% human serum", "cell line": "MT-2", "result": "<0.199 µM"}
{"compound": "Cc1nc(CCCCCCC(=O)c2ccccc2)n2nc(NCCCCCCCCN)ccc12", "strain": "IIIB", "cell line": "MT-4", "result": ">10 µM"}
{"compound": "CC(C)C1=C2C3CCC4[C@@]5(C)CC[C@H](OC(=O)CC(C)(C)C(=O)O)C(C)(C)C5CC[C@@]4(C)[C@]3(C)CC[C@@]2(NC(=O)N[C@H](C)c2ccccc2)CC1=O", "strain": "IIIB", "conditions": "30% human serum", "cell line": "MT-2", "result": "<0.199 µM"}
{"compound": "Cc1nc(CCCCCCC(=O)c2ccccc2)n2nc(Cl)ccc12", "strain": "LAI", "cell line": "CEM + CEM TK-", "result": "0.51 µM"}

Repeating the final 3 entries:

| compound | strain | mutations | conditions | cell line | result |
|---|---|---|---|---|---|
| Cc1nc(CCCCCCC(=O)c2ccccc2)n2nc(NCCCCCCCCN)ccc12 | IIIB | - | - | MT-4 | >10 µM |
| CC(C)C1=C2C3CCC4[C@@]5(C)CC[C@H](OC(=O)CC(C)(C)C(=O)O)C(C)(C)C5CC[C@@]4(C)[C@]3(C)CC[C@@]2(NC(=O)N[C@H](C)c2ccccc2)CC1=O | IIIB | - | 30% human serum | MT-2 | <0.199 µM |
| Cc1nc(CCCCCCC(=O)c2ccccc2)n2nc(Cl)ccc12 | LAI | - | - | CEM + CEM TK- | 0.51 µM |

ECn: concentration that inhibits the pathogen or its effect by n%. Blank or dashed fields: not listed here.